Results of unrelated studies side by side (data: NIAID ChemDB).

Shared fields: whole-cell or culture tests; species: Aspergillus fumigatus; read-out: MIC80

MIC50, MIC90 and the like: level of inhibition, or share of isolates inhibited.

compound	strain or isolate	method	result
C[C@@H](N1CCN(Cc2cn(Cc3ccc(Cl)cc3Cl)c3cc(Cl)ccc23)CC1)[C@](O)(Cn1cncn1)c1ccc(F)cc1F	ATCC 16424	resazurin	8 µg/mL
O=c1c2cccc(O)c2oc2cccc(O)c12	CBS 113.26	-	16 µg/mL
CCC(C)n1ncn(-c2ccc(N3CCN(c4ccc(OC[C@H]5CO[C@](Cn6cncn6)(c6ccc(Cl)cc6Cl)O5)cc4)CC3)cc2)c1=O	0504656	broth dilution	1.417 µM
C[C@@H](N1CCN(Cc2cn(Cc3cccc(C(F)(F)F)c3)c3c(F)cccc23)CC1)[C@](O)(Cn1cncn1)c1ccc(F)cc1F	ATCC 16424	resazurin	8 µg/mL
CCCC(CC(=O)O)c1cc2c(c3c1OC(C)(C)C=C3)O[C@H](C)[C@H](C)C2=O	CBS 113.26	-	2 µg/mL
CC(C)(C)c1ccc(/C=C2\SC(=O)N(CC(O)(Cn3nccn3)c3ccc(F)cc3F)C2=O)cc1	-	-	>100 µg/mL
NC(=O)N/N=C/c1ccsc1.NC(=O)N/N=C/c1ccsc1.[Cl][Ni][Cl]	CBS 113.26	turbidity / absorbance	>250 µg/mL
Cc1ccccc1/C=C1\SC(=O)N(CC(O)(Cn2nccn2)c2ccc(F)cc2F)C1=O	-	-	>100 µg/mL
C[C@H]1[C@H](O)[C@@H](C)/C=C/C=C/C=C/C=C/C=C/C=C/C=C/[C@H](O[C@@H]2O[C@H](C)[C@@H](O)[C@H](N)[C@@H]2O)C[C@@H]2O[C@](O)(C[C@@H](O)C[C@@H](O)CC[C@H](O)[C@@H](O)C[C@@H](O)CC(=O)O[C@H]1C)C[C@H](O)[C@H]2C(=O)O	-	-	8 µg/mL
OC(CN1CCCN(CCCCCOc2ccccc2)C1)(Cn1cncn1)c1ccc(F)cc1F	-	-	>132 µM
C=CCc1ccc(Cn2cc(CN3CCN([C@H](C)[C@](O)(Cn4cncn4)c4ccc(F)cc4F)CC3)c3cccc(F)c32)cc1	ATCC 16424	resazurin	64 µg/mL
CCC(=O)OC1CCN(CC(O)(Cn2cncn2)c2ccc(F)cc2F)CC1	0504656	broth dilution	10.1 µM
C[C@@H](N1CCN(Cc2cn(Cc3ccc(C(F)(F)F)cc3)c3ccccc23)CC1)[C@](O)(Cn1cncn1)c1ccc(F)cc1F	ATCC 16424	resazurin	2 µg/mL
COc1cc2oc3ccccc3c(=O)c2cc1OC	-	-	31 µg/mL
NC(=O)N/N=C/c1ccsc1.NC(=O)N/N=C/c1ccsc1.[Br][Ni][Br]	CBS 113.26	turbidity / absorbance	>250 µg/mL
COc1c2c(c3oc4c(O)cccc4c(=O)c3c1O)CC(C(C)(C)O)O2	-	-	125 µg/mL
CCCC(CC(=O)O)c1c2c(c(O)c3c1O[C@@H](C)[C@@H](C)C3=O)C=CC(C)(C)O2	CBS 113.26	-	>250 µg/mL
COc1c(O)ccc2oc3ccccc3c(=O)c12	CBS 113.26	-	31 µg/mL
OC(Cn1cncn1)(Cn1cncn1)c1ccc(F)cc1F	-	-	>100 µg/mL
C[C@@H](N1CCN(Cc2cn(Cc3ccc(C(F)(F)F)cc3)c3c(F)cccc23)CC1)[C@](O)(Cn1cncn1)c1ccc(F)cc1F	ATCC 16424	resazurin	8 µg/mL
O=C(/C=C/c1ccccc1Cl)OC1CCN(CC(O)(Cn2cncn2)c2ccc(F)cc2F)CC1	0504656	broth dilution	1.991 µM
COc1c(O)cc2oc3cc(O)cc(O)c3c(=O)c2c1OC	CBS 113.26	-	16 µg/mL
Fc1ccc(Cn2cc(Cn3ccnc3)c3cc(Br)ccc32)cc1	AF980003	-	>100 µg/mL
CC(O)Cn1cc(CN2CCN([C@H](C)[C@](O)(Cn3cncn3)c3ccc(F)cc3F)CC2)c2cccc(Cl)c21	ATCC 16424	resazurin	128 µg/mL
CN(CCCCCOc1ccccc1)CC(O)(Cn1cncn1)c1ccc(F)cc1F	-	-	37.19 µM
C[C@@H](N1CCN(Cc2cn(Cc3ccc(F)cc3F)c3c(Cl)cccc23)CC1)[C@](O)(Cn1cncn1)c1ccc(F)cc1F	ATCC 16424	resazurin	2 µg/mL
Fc1ccccc1Cn1cc(Cn2ccnc2)c2cc(Br)ccc21	AF980003	-	>100 µg/mL
COc1cc2oc3ccccc3c(=O)c2c(OC)c1OC	-	-	62 µg/mL
O=C(/C=C/c1ccccc1Br)OC1CCN(CC(O)(Cn2cncn2)c2ccc(F)cc2F)CC1	0504656	broth dilution	1.831 µM
O=C1S/C(=C\c2ccccn2)C(=O)N1CC(O)(Cn1nccn1)c1ccc(F)cc1F	-	-	>100 µg/mL
CCCC(c1cn(Cc2ccc(Cl)cc2)c2ccc(Br)cc12)n1ccnc1	AF980003	-	>100 µg/mL
CC(=O)OC1CCN(CC(O)(Cn2cncn2)c2ccc(F)cc2F)CC1	0504656	broth dilution	10.5 µM
OC(CN=C1CCN(CCCCCOc2ccccc2)CC1)(Cn1cncn1)c1ccc(F)cc1F	-	-	>129 µM
CC1=C[C@H]2c3c(ccc4oc5cc(O)cc(O)c5c(=O)c34)OC(C)(C)[C@H]2CC1	CBS 113.26	-	32 µg/mL
CCCCCCCCC(=O)OC1CCN(CC(O)(Cn2cncn2)c2ccc(F)cc2F)CC1	0504656	broth dilution	2.154 µM
OC(CN=C1CCN(CCCCOc2ccccc2)CC1)(Cn1cncn1)c1ccc(F)cc1F	-	-	>132 µM
CCCCC(c1cn(Cc2ccc(Cl)cc2)c2ccc(Br)cc12)n1ccnc1	AF980003	-	>100 µg/mL
CN1CCN(c2n[nH]c(N3C(=O)CS[C@@H]3c3ccc4c(c3)OCO4)n2)CC1	168.95	broth dilution	10 µg/mL
COc1c(O)cc2c(=O)c3ccccc3oc2c1OC	-	-	62 µg/mL
O=C(CCl)OC1CCN(CC(O)(Cn2cncn2)c2ccc(F)cc2F)CC1	0504656	broth dilution	9.66 µM

The first 2 rows once more:

| compound | strain or isolate | method | result |
|---|---|---|---|
| C[C@@H](N1CCN(Cc2cn(Cc3ccc(Cl)cc3Cl)c3cc(Cl)ccc23)CC1)[C@](O)(Cn1cncn1)c1ccc(F)cc1F | ATCC 16424 | resazurin | 8 µg/mL |
| O=c1c2cccc(O)c2oc2cccc(O)c12 | CBS 113.26 | - | 16 µg/mL |

An empty or dashed field is not shown. Rows are shuffled and stem from different studies.